Laboratory results: ChEMBL document CHEMBL4834412, “2,4,5-Trisubstituted Pyrimidines as Potent HIV-1 NNRTIs: Rational Design, Synthesis, Activity Evaluation, and Crystallographic Studies” (J Med Chem, 2021)

By UniProt entry, the sequences of proteins in these tests, tags left out. Where a name states a change or a piece, a line headed by the entry shows the natural chain unless it says otherwise.
UniProt Q12809: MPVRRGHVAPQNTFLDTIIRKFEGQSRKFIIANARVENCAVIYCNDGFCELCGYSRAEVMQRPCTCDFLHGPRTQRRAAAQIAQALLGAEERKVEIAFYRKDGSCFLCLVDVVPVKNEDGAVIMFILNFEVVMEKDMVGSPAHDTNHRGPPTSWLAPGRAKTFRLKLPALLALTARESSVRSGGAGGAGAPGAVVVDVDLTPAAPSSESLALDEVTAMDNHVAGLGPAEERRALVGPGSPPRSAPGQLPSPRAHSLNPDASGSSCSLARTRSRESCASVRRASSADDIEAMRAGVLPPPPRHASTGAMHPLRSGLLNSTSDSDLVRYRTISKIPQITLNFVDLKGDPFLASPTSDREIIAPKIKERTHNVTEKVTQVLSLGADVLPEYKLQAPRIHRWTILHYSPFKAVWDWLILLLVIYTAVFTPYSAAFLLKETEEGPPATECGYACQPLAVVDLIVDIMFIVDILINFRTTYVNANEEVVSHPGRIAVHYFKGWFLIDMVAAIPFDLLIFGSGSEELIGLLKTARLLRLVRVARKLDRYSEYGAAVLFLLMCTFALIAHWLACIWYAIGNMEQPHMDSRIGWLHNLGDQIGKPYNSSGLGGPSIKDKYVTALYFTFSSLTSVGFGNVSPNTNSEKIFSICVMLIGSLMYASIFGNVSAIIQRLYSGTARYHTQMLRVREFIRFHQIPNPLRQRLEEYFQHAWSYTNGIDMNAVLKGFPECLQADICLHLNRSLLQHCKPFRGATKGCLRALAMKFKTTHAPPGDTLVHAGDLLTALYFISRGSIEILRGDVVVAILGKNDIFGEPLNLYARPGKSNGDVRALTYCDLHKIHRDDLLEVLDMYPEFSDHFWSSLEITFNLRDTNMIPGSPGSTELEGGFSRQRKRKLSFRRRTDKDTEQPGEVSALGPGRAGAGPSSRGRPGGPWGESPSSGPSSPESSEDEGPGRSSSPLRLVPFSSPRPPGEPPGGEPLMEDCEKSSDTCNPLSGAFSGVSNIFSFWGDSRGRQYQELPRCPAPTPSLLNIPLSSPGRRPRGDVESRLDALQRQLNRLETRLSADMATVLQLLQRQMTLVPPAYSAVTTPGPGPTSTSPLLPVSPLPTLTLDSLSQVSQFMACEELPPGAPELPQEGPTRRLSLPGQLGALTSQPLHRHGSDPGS

What was measured:
[1] = Selectivity index, ratio of CC50 for cytotoxicity against human MT4 cells reduction in cell viability for 5 days by MTT assay to EC50 for antiviral activity against wild type HIV-1 strain IIIB infected in human MT4 cells assessed as reduction in virus-induced cytopathogenicity by MTT assay; assay type: toxicity, cell-based; conditions: time 5 day, read-out: Selectivity Index
[2] = in vivo; conditions: Sprague-Dawley, rat, iv, 2 mg/kg
[3] = in vivo; conditions: Sprague-Dawley, rat, po, 20 mg/kg
[4] = in vivo; conditions: Sprague-Dawley, rat, po, 20 mg/kg; remark: listed apart in the source
[5] = in vivo; conditions: Sprague-Dawley, rat, iv, 2 mg/kg; remark: listed apart in the source
[6] = Half life in Sprague-Dawley rat at 2 mg/kg, iv; conditions: in vivo
[7] = target: Human immunodeficiency virus type 1 reverse transcriptase (Human immunodeficiency virus 1, UniProt Q72547); assay: Inhibition of recombinant wild type HIV1 reverse transcriptase assessed as inhibition of biotin-dUTP incorporation into template
[8] = in vivo; conditions: Sprague-Dawley, rat, po, 20 mg/kg; remark: listed apart in the source
[9] = in vivo; conditions: Sprague-Dawley, rat, iv, 2 mg/kg; remark: listed apart in the source
[10] = in vivo; conditions: Sprague-Dawley, rat, po, 20 mg/kg; remark: listed apart in the source
[11] = system: MT4; assay: Cytotoxicity in mock-infected human MT4 assessed as reduction in cell viability incubated for 5 days by MTT assay; assay type: ADME, cell-based; conditions: mt4, 120 h, time 5 day
[12] = target: Voltage-gated inwardly rectifying potassium channel KCNH2 (Homo sapiens, UniProt Q12809)
[13] = Clearance in Sprague-Dawley rat at 2 mg/kg, iv; conditions: in vivo
[14] = Selectivity index, ratio of CC50 for cytotoxicity against human MT4 cells reduction in cell viability for 5 days by MTT assay to EC50 for antiviral activity against NNRTI-resistant HIV-1 RES056 harboring RT K103N/Y181C mutant infected in human MT4 cells assessed as protection against virus-induced cytopathogenicity after 5 days by MTT assay; assay type: toxicity, cell-based; conditions: time 5 day, read-out: Selectivity Index

Cc1cc(C#N)cc(C)c1Oc1nc(NC2CCN(Cc3ccc(C(N)=O)cc3)CC2)ncc1-c1ccncc1
selectivity ratio at 120 h [1]: 9600
Cmax [2]: 278 ng/mL
AUC(0-inf) [3]: 466 ng·h/mL
Cmax [4]: 174 ng/mL
AUC(0-t) [5]: 293 ng·h/mL
half-life [6]: 2.46 h
IC50 [7]: 113 nM
AUC(0-t) [8]: 460 ng·h/mL
AUC(0-inf) [9]: 303 ng·h/mL
half-life [10]: 1.74 h
CC50 [11]: 36000 nM
IC50 [12]: 1190 nM
clearance [13]: 110 mL/min/kg
selectivity ratio at 120 h [14]: 1470
